Data as given in PubChem BioAssay AID624099 (ICCB-Longwood, 2012)
The whole screen tested about 21,000 reagents; this is a random part of them. 497 of all reagents (2.4%) count as active. 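Higher z means weaker E2 silencing; only reporter increases were scored, and knock-downs that hurt cell survival may mask genuine repressor factors.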 Reagents against one gene are numbered here. Reagent sequences are not shown.

- Test: 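Human genes that papillomavirus E2 requires to repress the HPV18 LCR promoter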 (primary screen)
- System: human C33A cervical carcinoma cells (HPV-negative) stably expressing BPV1 E2 and an HPV18 LCR luciferase reporter
- Reagent: siRNA pool against human genes, 40 nM
- Duration: 72 h
- Detection: 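HPV18 LCR reporter light per well, converted to plate-wise z-scores that exclude control wells, and averaged over triplicate plates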
- Direction: mean z-score and z-score: higher = stronger reporter signal, weaker E2 silencing
- Hit rule: 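Mean z ≥ 2 together with z ≥ 2 in two or more of the three replicates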

no.	target	reagent	mean z-score	z-score, replicate A	z-score, replicate B	z-score, replicate C	activity call
1	SHLD2	1	-1.07	-1.08	-1.06	-1.07	inactive
2	AMN1	1	0.69	0.81	0.9	0.35	inactive
3	KCTD5	1	1.13	1.06	1.03	1.3	inactive
4	CIAO2A	1	-1.08	-1.19	-1.08	-0.96	inactive
5	BRINP2	1	-0.04	-0.51	0.24	0.16	inactive
6	LOC388959 (retired record)	1	0.09	-0.08	0.06	0.28	inactive
7	TRPC7	1	0.27	0.16	0.47	0.17	inactive
8	ZNF221	1	0.7	0.8	0.66	0.63	inactive
9	CYP2U1	1	0.38	0.31	0.2	0.62	inactive
10	NGB	1	0.88	0.77	1.03	0.85	inactive
11	KANSL1L	1	0.63	0.82	0.55	0.53	inactive
12	FXN	1	0.75	0.49	0.97	0.79	inactive
13	ZBED8L	1	0.54	0.04	1.13	0.45	inactive
14	DNM1P46	1	0.6	0.33	0.5	0.97	inactive
15	IL20RA	1	0.49	0.23	0.47	0.77	inactive
16	GPATCH1	1	2.53	2.83	2.4	2.36	active
17	TMEM161A	1	-0.42	-0.57	-0.42	-0.27	inactive
18	GPS1	1	-0.86	-0.88	-0.87	-0.82	inactive
19	EPCAM	1	-0.08	0.2	-0.16	-0.27	inactive
20	PMP22	1	-1.25	-1.26	-1.22	-1.28	inactive
21	MDGA2	1	0.84	0.64	0.94	0.95	inactive
22	HAT1	1	-0.64	-0.72	-0.76	-0.44	inactive
23	HEXD	1	-0.21		-0.16	-0.26	inactive
24	MGAT3	1	0.03	0.17	0.15	-0.23	inactive
25	BCLAF3	1	-0.06	-0.19	-0.06	0.09	inactive
26	TEX19	1	-0.37	-0.38	-0.48	-0.26	inactive

A run of entries of the results above, for reference:
no.	target	reagent	mean z-score	z-score, replicate A	z-score, replicate B	z-score, replicate C	activity call
17	TMEM161A	1	-0.42	-0.57	-0.42	-0.27	inactive
18	GPS1	1	-0.86	-0.88	-0.87	-0.82	inactive
19	EPCAM	1	-0.08	0.2	-0.16	-0.27	inactive
20	PMP22	1	-1.25	-1.26	-1.22	-1.28	inactive
21	MDGA2	1	0.84	0.64	0.94	0.95	inactive

Continued.
no.	target	reagent	mean z-score	z-score, replicate A	z-score, replicate B	z-score, replicate C	activity call
27	TMBIM1	1	-0.67	-0.23	-0.91	-0.88	inactive
28	GABARAPL2	1	1.62	1.51	1.67	1.69	inactive
29	AKIP1	1	0.04	0.12	-0.31	0.3	inactive
30	IFNA16	1	-0.68	-0.68	-0.72	-0.64	inactive
31	KIT	1	-0.46	-0.36	-0.52	-0.49	inactive
32	TSLIG3C	1	0.47	0.95	0.39	0.08	inactive
33	GPC4	1	-0.93	-0.97	-1.15	-0.67	inactive
34	DBT	1	0.66	0.77	0.43	0.77	inactive
35	LOC388139 (retired record)	1	0.23	-0.04	0.41	0.33	inactive
36	CCDC149	1	-0.49	-0.62	-0.39	-0.46	inactive
37	LINC00298	1	-0.81	-1.02	-0.87	-0.53	inactive
38	TTC12	1	1.24	1.45	1.35	0.93	inactive
39	IQCN	1	-0.58	-0.73	-0.29	-0.71	inactive
40	GALM	1	2.83	3.14	2.85	2.51	active
41	CCDC148	1	0.87	0.84	1.02	0.76	inactive
42	CEPT1	1	-1.48	-1.48	-1.55	-1.42	inactive
43	DTWD2	1	-0.02	0.28	-0.02	-0.32	inactive
44	LOC401861 (retired record)	1	-0.55	-0.78	-0.51	-0.37	inactive
45	CCDC50	1	0.44	-0.02	0.76	0.56	inactive
46	CDK12	1	0.25	0.63	0.22	-0.1	inactive
47	KLF3	1	-0.26	-0.13	-0.11	-0.54	inactive
48	SDHD	1	-0.12	0	0.12	-0.46	inactive
49	RALA	1	-0.15	0.05	-0.4	-0.09	inactive
50	SORDL (retired record)	1	1.02	1.26	0.68	1.13	inactive
51	DNAH12	1	-1.26	-1.31	-1.26	-1.2	inactive
52	DNAH12	2	-0.15	-0.33	0.01	-0.13	inactive
53	CETN3	1	-1.09	-1.47	-0.92	-0.88	inactive
54	PRMT6	1	-0.5	-0.95	-0.73	0.17	inactive
55	CLMB	1	-0.43	-0.84	0.1	-0.55	inactive
56	CMTR2	1	-0.9	-0.99	-1.01	-0.7	inactive
57	NTNG1	1	-1.23	-1.3	-1.34	-1.07	inactive
